## HIV-1 5' UTR: effect of mutations on RNA dimer formation

Data from the supplement of Ye et al. 2022, doi:10.1038/s41594-022-00746-2.

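Mutant RNA libraries with 1G, 2G or 3G starts, with or without cap, were folded at 37 °C for 30 min. Monomer and dimer bands were cut from native gels after folding in high salt (300 mM KCl, 5 mM MgCl2) or low salt (40 mM KCl, 0.1 mM MgCl2). Kdimer compares mutation frequencies in monomer and dimer, corrected for sequencing errors.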

RNA: 5' end of the HIV-1 NL4-3 genome, made in vitro. Positions 1-437 read:
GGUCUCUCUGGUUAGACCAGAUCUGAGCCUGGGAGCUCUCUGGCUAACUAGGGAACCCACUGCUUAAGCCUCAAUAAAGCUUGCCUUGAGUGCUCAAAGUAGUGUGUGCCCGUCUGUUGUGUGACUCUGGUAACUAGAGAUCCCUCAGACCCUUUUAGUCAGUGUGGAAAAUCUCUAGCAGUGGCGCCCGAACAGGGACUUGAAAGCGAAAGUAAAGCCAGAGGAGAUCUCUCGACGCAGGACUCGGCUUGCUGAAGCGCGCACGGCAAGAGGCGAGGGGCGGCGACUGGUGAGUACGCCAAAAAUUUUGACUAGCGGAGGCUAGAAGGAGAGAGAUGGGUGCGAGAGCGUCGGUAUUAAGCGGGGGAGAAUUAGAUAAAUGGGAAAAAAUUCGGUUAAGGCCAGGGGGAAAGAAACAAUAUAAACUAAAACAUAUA

Scale: median log2 Kdimer over the changes at a position; positive = changes inhibit dimerization, negative = changes enhance it. Sample: 2G capped high-salt. One numbering serves 1G, 2G and 3G. A position is written with its base where known. Bases beyond 437 are not listed in the source.

For G25 (domain TAR) the result was -0.64.
For G31 (domain TAR) the result was 0.10.
For U49 (domain TAR) the result was 0.06.
For A59 (domain PolyA) the result was 0.19.
For U65 (domain PolyA) the result was 0.08.
For A67 (domain PolyA) the result was 0.19.
For A77 (domain PolyA) the result was -0.03.
For G108 (domain U5) the result was -0.35.
For G116 the result was 0.42.
For U126 (domain PAS) the result was 0.03.
For U128 (domain PAS) the result was 0.23.
For G129 (domain PAS) the result was 0.20.
For A136 (domain PBS) the result was 0.11.
For U153 (domain PBS) the result was 0.10.
For U154 (domain PBS) the result was 0.06.
For C160 (domain PBS) the result was -0.14.
For G167 (domain PBS) the result was 0.08.
For U182 (domain PBS) the result was 0.04.
For C188 (domain PBS) the result was 0.13.
For U200 (domain PBS) the result was 0.19.
For A204 (domain PBS) the result was 0.25.
For A214 (domain PBS) the result was 0.09.
For G226 the result was -0.33.
For G237 the result was 1.11.
For C262 (domain SL1) the result was 3.10.
For C267 (domain SL1) the result was 4.01.
For A271 (domain SL1) the result was 0.15.
For C287 (domain SL2) the result was -0.27.
For G292 (domain SL2) the result was -0.26.
For A305 the result was -0.25.
For U313 (domain SL3) the result was 1.14.
For C316 (domain SL3) the result was 0.05.
For G320 (domain SL3) the result was -0.13.
For G328 the result was -0.02.
For G329 the result was 0.08.
For A334 (domain AUG) the result was -0.01.
For A347 the result was 0.37.
For G348 the result was -0.31.
For U351 the result was 0.10.
For U355 the result was 0.12.
For A370 the result was 0.15.
For A376 the result was 0.06.
For G382 the result was -0.04.
For G384 the result was -0.32.
For A385 the result was 0.00.
For U391 the result was 0.09.
For G405 the result was -0.21.
For G413 the result was 0.02.
For A424 the result was -0.06.
For A425 the result was 0.10.
For position 450 the result was 0.28.
For position 471 the result was -0.10.
For position 497 the result was 0.05.